Results of unrelated studies side by side (data: NIAID ChemDB).

Common to all: growth or infection tests; agent: Candida albicans; endpoint: MIC80

Conditions beyond the fields shown may differ between rows.

SMILES	changes	strain	conditions	method	value
Oc1cc(Cl)ccc1Oc1ccc(Cl)cc1Cl				broth dilution	64 µg/mL
CCCCCCCCCCCCCCSc1ccc(N=C(N)N)cc1		ATCC 44859			125 µM
COc1ccc2c(Cc3ccccc3Br)c3[n+](cc2c1OC)CCc1cc2c(cc1-3)OCO2.[Br-]	Fluconazole-resistant	Clinical isolate		broth dilution	32 µg/mL
CC[C@@H]1C[C@@]2(CC)O/C(=C\C(=O)OC)[C@@]3(CC)[C@H](CC)[C@]1(C)[C@@]23C			clinical isolate	broth dilution	13.1 µM
COc1ccc2c(Cc3cccc(C)c3)c3[n+](cc2c1OC)CCc1cc2c(cc1-3)OCO2.[Br-]	Fluconazole-resistant	Clinical isolate		broth dilution	32 µg/mL
CCSc1ccc(N=C(N)N)cc1		ATCC 44859			>1000 µM
Oc1ccc2cc1Oc1ccc(cc1)CCc1ccc(O)c(c1)Oc1ccc(cc1O)CC2		BWP17-DPP3-GFP		broth dilution	>64 µg/mL
O=C(Cc1ccccc1F)NCCc1ccc2c(c1)OCO2	Fluconazole-resistant	Clinical isolate		broth dilution	>64 µg/mL
CCCCCCCCCCCSc1ccc(N=C(N)N)cc1		ATCC 44859			7.81 µM
C[C@H](Cc1ccc(O)c(O)c1)[C@@H](C)Cc1ccc(O)c(O)c1		CCC 127-2000		broth dilution	250 µg/mL
C1=[N+](Cc2ccccc2)CCc2cc3c(cc21)OCO3.[Br-]	Fluconazole-resistant	Clinical isolate		broth dilution	>64 µg/mL
Cc1ccc2c([N+](=O)[O-])cc([N+](=O)[O-])c(O)c2n1					62.5 µg/mL
CCC(C)n1ncn(-c2ccc(N3CCN(c4ccc(OC[C@H]5CO[C@](Cn6cncn6)(c6ccc(Cl)cc6Cl)O5)cc4)CC3)cc2)c1=O		ATCC 76615		broth dilution	0.0625 µg/mL
O=S(=O)(O)c1cc(N=C=S)ccc1/C=C/c1ccc(N=C=S)cc1S(=O)(=O)O		SC5314		turbidity	>99.7 µg/mL
Oc1ccc2c(c1)CCc1ccc(cc1)Oc1cc(ccc1O)CCc1ccc-2c(O)c1		BWP17-DPP3-GFP		broth dilution	16 µg/mL
CCCCCCCCSc1ccc(N=C(N)N)cc1		ATCC 44859			7.81 µM
Oc1ccc2cc1Oc1cccc(c1)CCc1ccc(O)c(c1)Oc1ccc(cc1O)CC2		BWP17-DPP3-GFP		broth dilution	>64 µg/mL
COc1ccc2c(c1OC)CN1CCc3cc4c(cc3C1C2)OCO4	Fluconazole-resistant	Clinical isolate		broth dilution	>64 µg/mL
Oc1ccc2cc1Oc1ccc(cc1)CCc1ccc(O)c(c1)Oc1ccc(cc1)CC2		BWP17-DPP3-GFP		broth dilution	>64 µg/mL
COc1ccc2c(Cc3ccccc3[N+](=O)[O-])c3[n+](cc2c1OC)CCc1cc2c(cc1-3)OCO2.[Br-]	Fluconazole-resistant	Clinical isolate		broth dilution	32 µg/mL

Repeating the final 2 entries:

SMILES | changes | strain | conditions | method | value
Oc1ccc2cc1Oc1ccc(cc1)CCc1ccc(O)c(c1)Oc1ccc(cc1)CC2 |  | BWP17-DPP3-GFP |  | broth dilution | >64 µg/mL
COc1ccc2c(Cc3ccccc3[N+](=O)[O-])c3[n+](cc2c1OC)CCc1cc2c(cc1-3)OCO2.[Br-] | Fluconazole-resistant | Clinical isolate |  | broth dilution | 32 µg/mL

Blank or dashed fields: not listed here. MIC50, MIC90 and the like: level of inhibition, or share of isolates inhibited.